Measured values from several laboratories, pooled; numbers as filed in NIAID ChemDB.

Shared fields: whole-cell or culture tests; agent: Mycobacterium avium

MIC50, MIC90 and the like: level of inhibition, or share of isolates inhibited. For "inactive" no cut-off is given. ECn: concentration that inhibits the pathogen or its effect by n%. Percent inhibition refers to the dose given; in toxicity tests it is the harm to the cells. Rows are shuffled and stem from different studies. Blank or dashed fields: not listed here.

structure | measure | conditions | strain | dose | read by | result
O=C1C=CC(=O)c2ccccc21 | MBC |  | MAC104 |  |  | 400 µg/mL
CCn1cc(C(=O)O)c(=O)c2cc(F)c(-n3cccc3)cc21 | MIC50 |  | 22 strains |  |  | 32 µg/mL
CO[C@H]1/C=C/O[C@@]2(C)Oc3c(C)c(O)c4c(O)c(c(/C=N/N5CCN(C)CC5)c(O)c4c3C2=O)NC(=O)/C(C)=C\C=C\[C@H](C)[C@H](O)[C@@H](C)[C@@H](O)[C@@H](C)[C@H](OC(C)=O)[C@@H]1C | MIC |  | 3011-C clarithromycin-resistant |  |  | 1 µg/mL
CCCCCNC(=O)Nc1ccc(S(=O)(=O)Nc2cc(C)on2)cc1 | MIC100 | 21 d | 330/88 |  | broth dilution / absorbance | 1000 µM
CCn1cc(C(=O)O)c(=O)c2cc(F)c(N3CCN(C)CC3)cc21 | EC50 | pH 6.8 |  |  |  | <10 µg/mL
CO[C@H]1/C=C/O[C@@]2(C)Oc3c(C)c(O)c4c(O)c(c(/C=N/N5CCN(C)CC5)c(O)c4c3C2=O)NC(=O)/C(C)=C\C=C\[C@H](C)[C@H](O)[C@@H](C)[C@@H](O)[C@@H](C)[C@H](OC(C)=O)[C@@H]1C | Mean MIC |  | 4 strains |  |  | 45.3 µg/mL
CCN(CC)c1nc2c(s1)c1c(O)c3c(O)c(C)c4c(c32)C(=O)[C@@](C)(O/C=C/[C@H](OC)[C@@H](C)[C@@H](OC(C)=O)[C@H](C)[C@H](O)[C@H](C)[C@@H](O)[C@@H](C)/C=C/C=C(/C)C(=O)N1)O4 | MBC |  | 9141 |  |  | 8 µg/mL
C[C@H]1COc2c(N3CC[C@H](N(C)C)C3)c(F)cc3c(=O)c(C(=O)O)cn1c23 | Mean MIC |  | 4 strains |  |  | 9 µg/mL
O=C(O)c1cccc2ccccc12 | MBC |  | MAC104 |  |  | 3200 µg/mL
CO[C@H]1/C=C/O[C@@]2(C)Oc3c(C)c(O)c4c(=O)c(c5oc6cc(N7CCN(CC(C)C)CC7)cc(=O)c6nc5c4c3=C2O)NC(=O)/C(C)=C\C=C\[C@H](C)[C@H](O)[C@@H](C)[C@@H](O)[C@@H](C)[C@H](OC(C)=O)[C@@H]1C | MBC |  | 3354 |  |  | >0.125 µg/mL
C[C@H]1COC2(CCN(c3nc(=O)c4cc(C(F)(F)F)cc(C(=O)O)c4s3)CC2)O1 | MIC99 |  | ATCC 13032 |  | resazurin | >100 µg/mL
NCCC(O)C(=O)N[C@@H]1C[C@H](N)C(O[C@H]2O[C@H](CN)[C@@H](O)[C@H](O)[C@H]2O)[C@H](O)[C@H]1O[C@H]1O[C@H](CO)[C@@H](O)[C@H](N)[C@H]1O | MIC90 |  | Reference strains |  |  | 8 µg/mL
CCCCCCNC(=O)Nc1ccc(S(=O)(=O)Nc2cc(C)on2)cc1 | MIC100 | 21 d | 330/88 |  | broth dilution / absorbance | 250 µM
CC(C)N=c1cc2n(-c3ccc(Cl)cc3)c3ccccc3nc-2cc1Nc1ccc(Cl)cc1 | MIC50 |  | Clinical isolate |  |  | 0.12 µg/mL
CN1CCN(c2cc3c(cc2F)c(=O)c(C(=O)O)cn3-c2ccc(F)cc2)CC1 | MIC50 |  | 22 strains |  |  | 8 µg/mL
CO[C@H]1/C=C/O[C@@]2(C)Oc3c(C)c(O)c4c(O)c(c5c(c4c3C2=O)NC2(CCN(CC(C)C)CC2)N=5)=NC(=O)/C(C)=C\C=C\[C@H](C)[C@H](O)[C@@H](C)[C@@H](O)[C@@H](C)[C@H](OC(C)=O)[C@@H]1C | MIC |  | Isolate 90-1816 |  |  | 0.2 µg/mL
CCNC(=O)Nc1ccc(S(=O)(=O)Nc2cc(C)on2)cc1 | MIC100 | 21 d | 330/88 |  | broth dilution / absorbance | 1000 µM
NNC(=O)c1ccncc1 | Mean MIC |  | 4 strains |  |  | 4.7 µg/mL
CO[C@H]1/C=C/O[C@@]2(C)Oc3c(C)c(O)c4c(O)c(c5c(c4c3C2=O)NC2(CCN(CC(C)C)CC2)N=5)=NC(=O)/C(C)=C\C=C\[C@H](C)[C@H](O)[C@@H](C)[C@@H](O)[C@@H](C)[C@H](OC(C)=O)[C@@H]1C | MIC90 |  | Reference strains |  |  | 2 µg/mL
NCC[C@H](O)C(=O)N[C@@H]1C[C@H](N)[C@@H](O[C@H]2O[C@H](CN)[C@@H](O)[C@H](O)[C@H]2O)[C@H](O)[C@H]1O[C@H]1O[C@H](CO)[C@@H](O)[C@H](N)[C@H]1O | MIC50 |  | Clinical isolate |  |  | 16 µg/mL
CC[C@H]1OC(=O)[C@H](C)[C@@H](O[C@H]2C[C@@](C)(OC)[C@@H](O)[C@H](C)O2)[C@H](C)[C@@H](O[C@@H]2O[C@H](C)C[C@H](N(C)C)[C@H]2O)[C@](C)(OC)C[C@@H](C)C(=O)[C@H](C)[C@@H](O)[C@]1(C)O | MIC | pH 7.4 | 3090 |  | broth dilution / radiometric | 0.5 µg/mL
C[C@H]1COc2c(N3C[C@@H]4CCCN[C@@H]4C3)c(F)cc3c(=O)c(C(=O)O)cn1c23 | Mean MIC |  | 4 strains |  |  | 0.7 µg/mL
CCn1cc(C(=O)O)c(=O)c2cc(F)c(N3CCNCC3)cc21 | MIC90 |  | 13 strains |  |  | >64 µg/mL
CC[C@H]1OC(=O)[C@H](C)[C@@H](O[C@H]2C[C@@](C)(OC)[C@@H](O)[C@H](C)O2)[C@H](C)[C@@H](O[C@@H]2O[C@H](C)C[C@H](N(C)C)[C@H]2O)[C@](C)(O)C[C@@H](C)CN(C)[C@H](C)[C@@H](O)[C@]1(C)O | MIC |  | 453 |  |  | 16 µg/mL
CC1=CC(=O)c2c(O)cccc2C1=O | MBC |  | MAC104 |  |  | 12.5 µg/mL
C=C[C@]1(C)C=C2[C@H](O)C[C@@H]3C(C)(CCC[C@@]3(C)CO)[C@H]2CC1 | inhibition |  | ITM2515 | 100 µg/mL |  | inactive
CC[C@H]1OC(=O)[C@H](C)[C@@H](O[C@H]2C[C@@](C)(OC)[C@@H](O)[C@H](C)O2)[C@H](C)[C@@H](O[C@@H]2O[C@H](C)C[C@H](N(C)C)[C@H]2O)[C@](C)(O)C[C@@H](C)C(=O)[C@H](C)[C@@H](O)[C@]1(C)O | MIC90 |  | Clinical strains |  |  | >16 µg/mL
CO[C@H]1/C=C/O[C@@]2(C)Oc3c(C)c(O)c4c(O)c(c5c(c4c3C2=O)NC2(CCN(CC(C)C)CC2)N=5)=NC(=O)/C(C)=C\C=C\[C@H](C)[C@H](O)[C@@H](C)[C@@H](O)[C@@H](C)[C@H](OC(C)=O)[C@@H]1C | Median MIC |  | 30 strains |  |  | 0.5 µg/mL
CCc1cc(C(N)=S)ccn1 | MIC |  | 1435-C clarithromycin-resistant |  |  | >8 µg/mL
CO[C@H]1/C=C/O[C@@]2(C)Oc3c(C)c(O)c4c(O)c(c5c(c4c3C2=O)NC2(CCN(CC(C)C)CC2)N=5)=NC(=O)/C(C)=C\C=C\[C@H](C)[C@H](O)[C@@H](C)[C@@H](O)[C@@H](C)[C@H](OC(C)=O)[C@@H]1C | MIC50 |  | Clinical isolate |  |  | >0.5 µg/mL
CCCc1c2c([nH]c(=O)c1C)C(=O)c1[nH]c(=O)c(C)c(CCC)c1C2=O | MIC90 |  | ATCC 15769 |  | resazurin / fluorescence | 3.85 µg/mL
NNC(=O)c1ccncc1 | EC50 |  |  |  | resazurin | >200 µg/mL
CNn1cc(C(=O)O)c(=O)c2cc(F)c(N3CCN(C)CC3)cc21 | MIC50 |  | 22 strains |  |  | 16 µg/mL
NCC[C@H](O)C(=O)N[C@@H]1C[C@H](N)[C@@H](O[C@H]2O[C@H](CN)[C@@H](O)[C@H](O)[C@H]2O)[C@H](O)[C@H]1O[C@H]1O[C@H](CO)[C@@H](O)[C@H](N)[C@H]1O | MIC90 |  | 9 isolates (HIV+) |  |  | 64 µg/mL
Cc1cc(NS(=O)(=O)c2ccc(NC(=O)N(C(C)C)C(C)C)cc2)no1 | MIC100 | 14 d | 330/88 |  | broth dilution / absorbance | >1000 µM
O=C(O)c1cn(-c2ccc(F)cc2)c2cc(N3CCNCC3)c(F)cc2c1=O | MIC50 |  | 22 strains |  |  | 8 µg/mL
CC[C@@H](CO)NCCN[C@@H](CC)CO | MBC |  | N-444 |  | broth dilution | 32 µg/mL
N[C@@H]1CONC1=O | MIC |  | 1435-C clarithromycin-resistant |  |  | 16 µg/mL
CC[C@H]1OC(=O)[C@H](C)[C@@H](O[C@H]2C[C@@](C)(OC)[C@@H](O)[C@H](C)O2)[C@H](C)[C@@H](O[C@@H]2O[C@H](C)C[C@H](N(C)C)[C@H]2O)[C@](C)(OC)C[C@@H](C)C(=O)[C@H](C)[C@@H](O)[C@]1(C)O | MIC90 |  | Clinical strains |  |  | 16 µg/mL
C[C@@H]1CN(c2c(F)c(N)c3c(=O)c(C(=O)O)cn(C4CC4)c3c2F)C[C@H](C)N1 | MIC50 |  | 9 isolates (HIV+) |  |  | 4 µg/mL
CCCCNC(=O)Nc1ccc(S(=O)(=O)Nc2cc(C)on2)cc1 | MIC100 | 21 d | 330/88 |  | broth dilution / absorbance | 1000 µM
O=C(O)c1cc(C(F)(F)F)cc2c(=O)nc(N3CCN(CC4CCCCC4)CC3)sc12 | MIC99 |  | ATCC 15769 |  | resazurin | >100 µg/mL
CCCCCCCCCCNC(=O)Nc1ccc(S(=O)(=O)Nc2cc(C)on2)cc1 | MIC100 | 21 d | 330/88 |  | broth dilution / absorbance | 125 µM
Cc1cc(-c2cc3c(cc2F)c(=O)c(C(=O)O)cn3C2CC2)cc(C)n1 | MBC |  | 3350 |  |  | 2 µg/mL

A second listing of 6 rows from above:

structure	measure	conditions	strain	dose	read by	result
CO[C@H]1/C=C/O[C@@]2(C)Oc3c(C)c(O)c4c(O)c(c5c(c4c3C2=O)NC2(CCN(CC(C)C)CC2)N=5)=NC(=O)/C(C)=C\C=C\[C@H](C)[C@H](O)[C@@H](C)[C@@H](O)[C@@H](C)[C@H](OC(C)=O)[C@@H]1C	MIC50		Clinical isolate			>0.5 µg/mL
O=C(O)c1cccc2ccccc12	MBC		MAC104			3200 µg/mL
CO[C@H]1/C=C/O[C@@]2(C)Oc3c(C)c(O)c4c(O)c(c5c(c4c3C2=O)NC2(CCN(CC(C)C)CC2)N=5)=NC(=O)/C(C)=C\C=C\[C@H](C)[C@H](O)[C@@H](C)[C@@H](O)[C@@H](C)[C@H](OC(C)=O)[C@@H]1C	Median MIC		30 strains			0.5 µg/mL
CO[C@H]1/C=C/O[C@@]2(C)Oc3c(C)c(O)c4c(O)c(c5c(c4c3C2=O)NC2(CCN(CC(C)C)CC2)N=5)=NC(=O)/C(C)=C\C=C\[C@H](C)[C@H](O)[C@@H](C)[C@@H](O)[C@@H](C)[C@H](OC(C)=O)[C@@H]1C	MIC90		Reference strains			2 µg/mL
Cc1cc(NS(=O)(=O)c2ccc(NC(=O)N(C(C)C)C(C)C)cc2)no1	MIC100	14 d	330/88		broth dilution / absorbance	>1000 µM
O=C1C=CC(=O)c2ccccc21	MBC		MAC104			400 µg/mL